A mixed list of measured activities; the numbers were collected in NIAID ChemDB.

Shared fields: whole-cell or culture tests; organism: Cryptococcus neoformans

Blank or dashed fields: not listed here. Zone: diameter of growth inhibition. Percent inhibition refers to the dose given; in toxicity tests it is the harm to the cells. Lines come from different laboratories, so protocols vary. MIC50, MIC90 and the like: level of inhibition, or share of isolates inhibited. ECn is the concentration giving n% inhibition of infection, replication or growth.

{"smiles": "Oc1cccc(C=Nc2ccccc2O)c1", "strain or isolate": "27JF", "endpoint": "MIC99", "value": "4 µg/mL"}
{"smiles": "C[C@@H](N1CCN(Cc2cn(Cc3ccc(Cl)cc3)c3c(F)cccc23)CC1)[C@](O)(Cn1cncn1)c1ccc(F)cc1F", "method": "resazurin", "strain or isolate": "ATCC 36556", "endpoint": "MIC80", "value": ">128 µg/mL"}
{"smiles": "NC(=NC1CCCC1)c1ccc(-c2ccc(-c3ccc(C(N)=NC4CCCC4)cc3)o2)cc1", "strain or isolate": "9 strains", "endpoint": "Geometric mean MFC", "value": "4.59 µg/mL"}
{"smiles": "C[C@@H](N1CCN(Cc2cn(-c3ccc(F)cc3)c3ccccc23)CC1)[C@](O)(Cn1cncn1)c1ccc(F)cc1F", "method": "resazurin", "strain or isolate": "ATCC 36556", "endpoint": "MIC80", "value": ">128 µg/mL"}
{"smiles": "Oc1ccccc1C=Nc1ccccc1O", "strain or isolate": "C-3-1", "endpoint": "MIC99", "value": "4 µg/mL"}
{"smiles": "C[C@@H](n1ncn(-c2ccc(OCC(F)(F)C(F)F)cc2)c1=O)[C@](O)(Cn1cncn1)c1ccc(F)cc1F", "strain or isolate": "DUMC 109.97", "endpoint": "MFC", "value": "4 µg/mL"}
{"smiles": "C[C@@H](N1CCN(Cc2cn(Cc3ccc(F)cc3F)c3cc(N=[N+]=[N-])ccc23)CC1)[C@](O)(Cn1cncn1)c1ccc(F)cc1F", "method": "resazurin", "strain or isolate": "ATCC 36556", "endpoint": "MIC80", "value": ">128 µg/mL"}
{"smiles": "Cn1nc(Cc2ccc(Cl)cc2)c2ccccc2c1=O", "method": "broth dilution", "strain or isolate": "Clinical isolate (IM 031633)", "endpoint": "MFC", "value": "31.3 µg/mL"}
{"smiles": "C[C@@H](c1nc(-c2ccc(C#N)cc2)cs1)[C@](O)(Cn1cnnc1)c1ccc(F)cc1F", "strain or isolate": "A25838", "endpoint": "MFC99", "value": "0.5 µg/mL"}
{"smiles": "CCOC(=O)c1c(C)nc(NCCCNc2ccnc3cc(Cl)ccc23)nc1-c1ccccc1", "strain or isolate": "27JF", "endpoint": "MIC99", "value": "16 µg/mL"}
{"smiles": "O=C(/C=C/c1ccc(F)cc1)OC1CCN(CC(O)(Cn2cncn2)c2ccc(F)cc2F)CC1", "method": "broth dilution", "strain or isolate": "BLS108", "endpoint": "MIC80", "value": "0.129 µM"}
{"smiles": "CC(C)C[C@@H]1NC(=O)[C@H](C(C)C)NC1=O", "method": "agar diffusion / agar", "endpoint": "zone", "dose": "16 µg/mL", "value": "29 mm"}
{"smiles": "CCNC(=S)N/N=C(\\N)c1ccccn1", "strain or isolate": "LMM 820", "endpoint": "MIC100", "value": ">416.7 µM"}
{"smiles": "NCCCC[C@H](NC(=O)[C@H](Cc1c[nH]c2ccccc12)NC(=O)[C@H](CCCCN)NC(=O)[C@@H](N)CCCCN)C(=O)O", "strain or isolate": "ATCC 32264", "endpoint": "inhibition", "dose": "100 µM", "value": "0%"}
{"smiles": "CC(C)C(=O)OC1CCN(CC(O)(Cn2cncn2)c2ccc(F)cc2F)CC1", "method": "broth dilution", "strain or isolate": "BLS108", "endpoint": "MIC80", "value": "0.612 µM"}
{"smiles": "CCOC(=O)c1cnc(NCCCCNc2ccnc3cc(Cl)ccc23)nc1C", "strain or isolate": "WP", "endpoint": "MIC99", "value": "5.7 µg/mL"}
{"smiles": "C[C@H]([C@](O)(Cn1cncn1)c1ccc(F)cc1F)S(C)(=O)=O", "strain or isolate": "R717 (AZOLE-R)", "endpoint": "EC50", "value": "2 µM"}
{"smiles": "CN[C@H]1CC[C@@H](c2ccc(Cl)c(Cl)c2)c2ccccc21", "method": "broth dilution", "strain or isolate": "98BC1-86", "endpoint": "MFC", "value": "8 µg/mL"}
{"smiles": "CCOC(=O)c1c(C)nc(OCCCNc2ccnc3cc(Cl)ccc23)nc1-c1ccccc1", "strain or isolate": "WP", "endpoint": "MIC99", "value": "5.7 µg/mL"}
{"smiles": "C[C@@H](N1CCN(Cc2cn(Cc3cccc(C(F)(F)F)c3)c3ccccc23)CC1)[C@](O)(Cn1cncn1)c1ccc(F)cc1F", "method": "resazurin", "strain or isolate": "ATCC 36556", "endpoint": "MIC80", "value": ">128 µg/mL"}
{"smiles": "O=C(/C=C/c1cccc(Br)c1)OC1CCN(CC(O)(Cn2cncn2)c2ccc(F)cc2F)CC1", "method": "broth dilution", "strain or isolate": "BLS108", "endpoint": "MIC80", "value": "0.458 µM"}
{"smiles": "COC(=O)[C@H]1[C@@H]2C[C@@H](O[C@@H]3O[C@H](C)[C@@H](O)[C@H](N)[C@@H]3O)/C=C/C=C/C=C/C=C/C=C/C=C/C=C/[C@H](C)[C@@H](O)[C@H](C)[C@H](C)OC(=O)C[C@H](O)C[C@H](O)[C@@H](O)CC[C@H](O)C[C@H](O)C[C@](O)(C[C@@H]1O)O2", "strain or isolate": "42 isolates (HIV+)", "endpoint": "Mean MIC", "value": "0.026 µg/mL"}
{"smiles": "C[C@@H](c1ncncc1F)[C@](O)(Cn1cncn1)c1ccc(F)cc1F", "method": "broth dilution", "strain or isolate": "ATCC90112", "endpoint": "MIC", "value": "0.125 µg/mL"}
{"smiles": "CSCC[C@H]1NC(=O)[C@H]2CCCN2C1=O", "method": "agar diffusion / agar", "endpoint": "zone", "dose": "32 µg/mL", "value": "23 mm"}
{"smiles": "C[C@@H](N1CCN(Cc2cn(Cc3ccc(Cl)cc3Cl)c3cc(Cl)ccc23)CC1)[C@](O)(Cn1cncn1)c1ccc(F)cc1F", "method": "resazurin", "strain or isolate": "ATCC 36556", "endpoint": "MIC80", "value": ">128 µg/mL"}
{"smiles": "O=C(Cc1ccccc1)OC1CCN(CC(O)(Cn2cncn2)c2ccc(F)cc2F)CC1", "method": "broth dilution", "strain or isolate": "BLS108", "endpoint": "MIC80", "value": "0.137 µM"}
{"smiles": "Oc1ccc(O)c(C=Nc2ccccc2O)c1", "method": "broth dilution", "strain or isolate": "ATCC 28957", "endpoint": "MIC", "value": "8 µg/mL"}
{"smiles": "CC1(C)O[C@H]2[C@H](O)[C@@H](N=[N+]=[N-])C=C(c3ccc(C=O)cc3)[C@H]2O1", "method": "broth dilution / turbidity", "strain or isolate": "ATCC 32264", "endpoint": "inhibition", "dose": "62.5 µg/mL", "value": "6.76%"}
{"smiles": "Oc1ccccc1N=Cc1ccc2c(c1)OCO2", "method": "broth dilution", "strain or isolate": "ATCC 28957", "endpoint": "MIC", "value": "5.7 µg/mL"}
{"smiles": "C=C1CO[C@H]2[C@@H](C)OC(OC[C@@]34C[C@H]5[C@H](C)CC[C@@H]5[C@@]5(C=O)C[C@@H]3C=C(C(C)C)[C@@]45C(=O)O)C[C@@H]12", "strain or isolate": "15 strains (serotype B)", "endpoint": "Mean MIC", "value": "0.833 µg/mL"}
{"smiles": "C[C@@H](n1cnc2cc(Cl)ccc2c1=O)[C@](O)(Cn1cncn1)c1ccc(F)cc1F", "strain or isolate": "Isolate 251.86", "endpoint": "MFC", "value": "20 µg/mL"}
{"smiles": "O=C(OC1CCN(CC(O)(Cn2cncn2)c2ccc(F)cc2F)CC1)C(F)(F)F", "method": "broth dilution", "strain or isolate": "BLS108", "endpoint": "MIC80", "value": "36.9 µM"}
{"smiles": "C[C@@H](N1CCN(Cc2cn(Cc3ccc(F)cc3F)c3c(Cl)cccc23)CC1)[C@](O)(Cn1cncn1)c1ccc(F)cc1F", "method": "resazurin", "strain or isolate": "ATCC 36556", "endpoint": "MIC80", "value": ">128 µg/mL"}
{"smiles": "Oc1ccccc1N=Cc1cccc(O)c1O", "method": "broth dilution", "strain or isolate": "96806", "endpoint": "MIC", "value": "4 µg/mL"}

The last 4 rows once more:

smiles	method	strain or isolate	endpoint	dose	value
C[C@@H](n1cnc2cc(Cl)ccc2c1=O)[C@](O)(Cn1cncn1)c1ccc(F)cc1F	-	Isolate 251.86	MFC	-	20 µg/mL
O=C(OC1CCN(CC(O)(Cn2cncn2)c2ccc(F)cc2F)CC1)C(F)(F)F	broth dilution	BLS108	MIC80	-	36.9 µM
C[C@@H](N1CCN(Cc2cn(Cc3ccc(F)cc3F)c3c(Cl)cccc23)CC1)[C@](O)(Cn1cncn1)c1ccc(F)cc1F	resazurin	ATCC 36556	MIC80	-	>128 µg/mL
Oc1ccccc1N=Cc1cccc(O)c1O	broth dilution	96806	MIC	-	4 µg/mL